Source: PubChem BioAssay AID504761 (Drosophila RNAi Screening Center, 2011)
Test: 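Genome-wide fly cell screen for genes dengue virus requires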 (primary screen). Cells: D.Mel-2 cells from Drosophila. Reagents: long dsRNA against Drosophila genes. Conditions: infection with dengue virus type 2; dose and infection time not stated. Measurement: 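Cells stained for dengue envelope protein and imaged; percent of infected cells per well on duplicate plates, ranked by infection, with stained nuclei counted for cell number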. Scale: infection score: higher = more virus-infected cells; cell count: higher = more cells in the well. Active means: 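Low infection ranks in the two replicates (chance level up to 0.065) followed by a retest with a 1.5-fold or larger significant decrease, p below 0.05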. Meaning of the calls: active = confirmed: knock-down lowers infection; inactive = not picked or not confirmed.
The screen tested about 22,000 reagents; this is a random part of those that have a named target and a result. Over the whole deposit, 116 (0.52%) got an active call. 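Calls depend on retest data that are not deposited; infection was ranked per plate without normalising between plates; the unit of the infection score is not given.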 Raw values are not corrected between plates. Reagents against one gene are numbered here. A plus sign joins genes that one reagent is predicted to hit. Not all columns of the deposit are shown. Reagent sequences are not shown. Not given: the amount of reagent, the time to read-out.

gene	reagent	infection score, replicate 1	infection score, replicate 2	cell count, replicate 1	outcome
CaBP1 (calcium-binding protein 1)	1	12.6	6.13	6467	inactive
Ca-alpha1T (Ca[2+]-channel protein alpha[[1]] subunit T)	1	4.31	7.36	6007	inactive
Ca-alpha1T (Ca[2+]-channel protein alpha[[1]] subunit T)	2	1.69	3.92	6409	inactive
Ca-alpha1T (Ca[2+]-channel protein alpha[[1]] subunit T)	3	8.05	20.4	6039	inactive
Ca-alpha1T (Ca[2+]-channel protein alpha[[1]] subunit T)	4	18	19.2	5463	inactive
Ca-alpha1T (Ca[2+]-channel protein alpha[[1]] subunit T)	5	2.06	11.4	5721	inactive
CG17129	1	14.1	2.03	6328	inactive
CG6051	1	2.59	11.5	6990	inactive
CG6051	2	3.32	3.35	6529	inactive
GPHR (Golgi pH Regulator)	1	9.9	5.97	6139	inactive
Adgf-E (Adenosine deaminase-related growth factor E)	1	22.1	4.19	4852	inactive
Adgf-E (Adenosine deaminase-related growth factor E)	2	25.5	24.1	5221	inactive

Records listed so far whose target name begins with A or a:
gene	reagent	infection score, replicate 1	infection score, replicate 2	cell count, replicate 1	outcome
Adgf-E (Adenosine deaminase-related growth factor E)	1	22.1	4.19	4852	inactive
Adgf-E (Adenosine deaminase-related growth factor E)	2	25.5	24.1	5221	inactive

More entries follow:
gene	reagent	infection score, replicate 1	infection score, replicate 2	cell count, replicate 1	outcome
Mipp2 (Multiple inositol polyphosphate phosphatase 2)	1	1.94	4.72	5870	inactive
CG10151	1	17.5	14	6096	inactive
CG10151	2	8.39	7.98	6869	inactive
PEK (pancreatic eIF-2alpha kinase)	1	2.88	5.39	6774	inactive
Frq2 (Frequenin 2)	1	16.6	13.5	5928	inactive
Frq2 (Frequenin 2)	2	4.76	4.44	6699	inactive
CG42288	1	14.2	9.15	4756	inactive
CG42288	2	4.68	7.28	5902	inactive
CG13659	1	3.26	14	6188	inactive
CG13659	2	9.06	0.26	1644	inactive
mbm + CG11555	1	7.4	5.81	6730	inactive
